Compound potency records, mixed from different reports. Data source: NIAID ChemDB in PubChem.

Common to all: tests in culture; agent: HIV-1; cell line: MT-4; read-out: EC50

Blank or dashed fields: not listed here. Neighbouring rows are from separate reports. ECn: concentration that inhibits the pathogen or its effect by n%.

compound | strain or isolate | mutations | method | conditions | result
Cc1cn([C@H]2C[C@H](N=[N+]=[N-])[C@@H](CO)O2)c(=O)[nH]c1=O | IIIB | - | cytopathic effect / MTS | - | 0.0004 µM
CN(C)C(c1ccccc1)c1nc(C(=O)NCc2ccc(F)cc2)c(O)c(=O)[nH]1 | IIIB | - | p24 | 10% FBS | <0.31 µM
Cc1cc(/C=C/C#N)cc(C)c1Oc1ccnc(S(=O)(=O)CC(=O)Nc2ccc(F)cc2)n1 | RES056 | - | MTT | - | 0.44 µM
O=C(N[C@H]1c2ccccc2OC[C@H]1O)[C@H](Cc1nnc(-c2ccccc2)o1)C[C@H](O)CN1CCN(Cc2ccc(-c3ccc(Cl)cc3)o2)C[C@H]1C(=O)NCC(F)(F)F | V-18 Clinical isolate | PR-L10I M36I N37D M46I R57K L63P A71V G73S I84V L90M I93L | p24 | - | <0.25 µM
Nc1nc(=O)n([C@@H]2CS[C@H](CO)O2)cc1F | RF | - | cytopathic effect / MTT | - | 2.02 µM
Cc1cc(C)c(-n2nnnc2SCC(=O)Nc2ccc(F)cc2Cl)c(C)c1 | - | - | p24 | - | <10 µM
C#Cc1ccc(Nc2nccc(Oc3c(C)cc(-c4cn(CCC(=O)OC)nn4)cc3C)n2)cc1 | IIIB | K103N | MTT | - | 0.75 µM
CC(C)(C)NC(=O)[C@@H]1C[C@@H]2CCCC[C@@H]2CN1C[C@@H](O)[C@H](Cc1ccccc1)NC(=O)[C@H](CC(N)=O)NC(=O)c1ccc2ccccc2n1 | NL4-3 | PR-M46I | p24 | - | <0.025 µM
Cc1ccnc2c1NC(=O)c1cccnc1N2C1CC1 | IIIB | K103N | MTT | - | >10.1 µM
O=c1[nH]cnc2c1ncn2[C@H]1CC[C@@H](CO)O1 | NNRTI-resistant (RT Y181C) | RT-Y181C | cytopathic effect / MTT | - | 3 µM
Cc1cc(C)c(-n2nnnc2SCC(=O)Nc2ccc(Cl)cn2)c(C)c1 | - | - | p24 | - | <10 µM
Cc1cn([C@H]2C[C@H](N=[N+]=[N-])[C@@H](COC(=O)NCCSC(=O)OC[C@@H]3CC[C@H](n4cnc5c(=O)[nH]cnc54)O3)O2)c(=O)[nH]c1=O | NNRTI-resistant (RT K103N Y181C) | RT-K103N Y181C | cytopathic effect / MTT | - | 1.2 µM
C#Cc1ccc(Nc2nccc(Oc3c(C)cc(-c4cn(CCCC(=O)OC)nn4)cc3C)n2)cc1 | IIIB | Y181C | MTT | - | ≥7.16 µM
CN(C)C1(c2nc(C(=O)NCc3ccc(F)cc3)c(O)c(=O)[nH]2)CCCCC1 | IIIB | - | p24 | 10% FBS | <0.12 µM
O=C1N(Cc2ccc(CO)cc2)[C@H](Cc2ccccc2)[C@H](O)[C@@H](O)[C@@H](Cc2ccccc2)N1Cc1ccc(CO)cc1 | NL4-3 | PR-L10R M46I L63P 184V | p24 | - | <3 µM
CN1CCOCC1c1nc(C(=O)NCc2ccc(F)cc2)c(O)c(=O)[nH]1 | IIIB | - | p24 | 10% FBS | <0.03 µM
C1CNCCNCCCN(CCCN2CCCNCCNCCCNCC2)CCNC1 | RF | - | cytopathic effect / MTT | - | 1.26 µg/mL
CC(C)(c1ncc(-c2ccc(Cl)cc2)o1)N1CCN(C[C@@H](O)C[C@@H](Cc2nnc(-c3ccccc3)o2)C(=O)N[C@H]2c3ccccc3OC[C@H]2O)[C@H](C(=O)NCC(F)(F)F)C1 | V-18 Clinical isolate | PR-L10I M36I N37D M46I R57K L63P A71V G73S I84V L90M I93L | p24 | - | <0.125 µM
O=c1[nH]cnc2c1ncn2[C@H]1CC[C@@H](CO)O1 | IIIB | RT-M184V | cytopathic effect / MTT | - | 76 µM
O=C1N(Cc2ccc(CO)cc2)[C@H](COc2ccccc2)[C@H](O)[C@@H](O)[C@@H](COc2ccccc2)N1Cc1ccc(CO)cc1 | IIIB | PR-G48V L90M | cytopathic effect / XTT | - | 0.013 µM
CCN1CCCCC1c1nc(C(=O)NCc2ccc(F)cc2)c(O)c(=O)[nH]1 | IIIB | - | p24 | 50% human serum | <0.5 µM
Cc1cc(C)c(-n2nnnc2SCC(=O)Nc2cccc3c2C(=O)NC3=O)c(C)c1 | - | - | p24 | - | <10 µM
c1cc(CN2CCCNCCCNCCNCCC2)ccc1CN1CCCNCCCNCCNCCC1 | NL4-3 | - | cytopathic effect / MTT | - | 0.04 µg/mL
O=C(NCc1ccc(F)cc1)c1nc(C(c2ccccc2)N2CCOCC2)[nH]c(=O)c1O | IIIB | - | p24 | 10% FBS | <0.63 µM
C#Cc1ccc(Nc2nccc(Oc3c(C)cc(-c4cn(Cc5ccccc5)nn4)cc3C)n2)cc1 | IIIB | L100I | MTT | - | 1.11 µM
Cc1nnc(C[C@H](C[C@H](O)CN2CCN(C(C)(C)c3ncc(-c4ccc(F)cc4)o3)C[C@H]2C(=O)NCC(F)(F)F)C(=O)N[C@H]2c3ccccc3OC[C@H]2O)o1 | NL4-3 WT | - | p24 | - | <0.125 µM
c1ccc(-c2cc(CN3CCCNCCNCCCNCC3)cc(CN3CCCNCCNCCCNCC3)c2)cc1 | NL4-3 | - | cytopathic effect / MTT | - | 0.2 µg/mL
O=C(NCc1ccc(F)cc1)c1nc(C2CCCCN2)[nH]c(=O)c1O | IIIB | - | p24 | 10% FBS | <1.46 µM
Cc1cc(C)c(-n2nnnc2OCC(=O)Nc2ccccc2Cl)c(C)c1 | - | - | p24 | - | <10 µM
Cc1cn([C@H]2C[C@H](N=[N+]=[N-])[C@@H](COC(=O)NCCSC(=O)OC[C@H]3O[C@@H](n4cc(C)c(=O)[nH]c4=O)C[C@@H]3N=[N+]=[N-])O2)c(=O)[nH]c1=O | EFV-resistant (RT K103R V179D P225H) | RT-K103R V179D P225H | cytopathic effect / MTT | - | 1 µM
CC(=O)Oc1ccc(/C=C/C(=O)O[C@@H](C(=O)O)[C@@H](OC(=O)/C=C/c2ccc(OC(C)=O)c(OC(C)=O)c2)C(=O)O)cc1OC(C)=O | NL4-3 | gp120 S158N N293D T370N T376N E377Q | - | - | 8 µM
O=[N+]([O-])c1cc(CN2CCCNCCNCCCNCC2)cc(CN2CCCNCCNCCCNCC2)c1 | NL4-3 | AMD3100-resistant | cytopathic effect / MTT | - | 3 µg/mL
C#Cc1ccc(Nc2nccc(Oc3c(C)cc(-c4cn(CC(=O)OC)nn4)cc3C)n2)cc1 | IIIB | Y181C | MTT | - | >10.35 µM
Cc1cc(C)c(-n2nnnc2SCC(=O)Nc2ccccc2OC(F)F)c(C)c1 | - | - | p24 | - | <10 µM
Cc1cc(C#N)cc(C)c1Oc1nc(Nc2ccc(C#N)cc2)nc(N)c1Br | RES056 | - | MTT | - | 0.045 µM
CC(C)(c1ncc(-c2ccc(F)cc2)o1)N1CCN(C[C@@H](O)C[C@@H](Cc2nnc(-c3ccccc3)o2)C(=O)N[C@H]2c3ccccc3OC[C@H]2O)[C@H](C(=O)NCC(F)(F)F)C1 | NL4-3 WT | - | p24 | - | <0.008 µM
C#Cc1ccc(Nc2nccc(Oc3c(C)cc(-c4cn(CC(=O)Nc5ccc(Br)cc5)nn4)cc3C)n2)cc1 | IIIB | - | MTT | - | 5.62 µM
C1CNCCNCCCN(CCCN2CCCNCCNCCCNCC2)CCNC1 | NL4-3 | - | cytopathic effect / MTS | - | 0.49 µM
Cc1cc(-c2ccc(C#N)cc2)cc(C)c1Oc1ccnc(S(=O)(=O)CC(=O)Nc2ccc(C#N)cc2)n1 | IIIB | Y181C | MTT | - | 0.026 µM
Cc1ccnc2c1NC(=O)c1cccnc1N2C1CC1 | IIIB | E138K | MTT | - | 0.18 µM
Cc1nnc(C[C@H](C[C@H](O)CN2CCN(Cc3ccc(-c4ccc(Cl)cc4)o3)C[C@H]2C(=O)NCC(F)(F)F)C(=O)N[C@H]2c3ccccc3OC[C@H]2O)o1 | K-60 Clinical isolate | PR-L10I M46I I54V Q58E L63P I64V V77I V82F I84V L90M I93L | p24 | - | <0.031 µM
Cc1cc(C)c(-n2nnnc2SCC(=O)Nc2ccc([N+](=O)[O-])cc2Cl)c(C)c1 | - | - | p24 | - | <10 µM
O=c1[nH]cnc2c1ncn2[C@H]1CC[C@@H](CO)O1 | HXB2-D184+294 (RT M184V P294S) | RT-M184V P294S | RT activity | - | 37.5 µM
Cc1cn([C@H]2C[C@H](N=[N+]=[N-])[C@@H](CO)O2)c(=O)[nH]c1=O | IIIB | L100I | MTT | - | 0.006 µM
Cc1cc(C)c(-n2nnnc2SCC(=O)Nc2ccc([N+](=O)[O-])cc2C)c(C)c1 | - | - | p24 | - | <10 µM

Repeating the final 6 entries:

compound	strain or isolate	mutations	method	conditions	result
Cc1ccnc2c1NC(=O)c1cccnc1N2C1CC1	IIIB	E138K	MTT	-	0.18 µM
Cc1nnc(C[C@H](C[C@H](O)CN2CCN(Cc3ccc(-c4ccc(Cl)cc4)o3)C[C@H]2C(=O)NCC(F)(F)F)C(=O)N[C@H]2c3ccccc3OC[C@H]2O)o1	K-60 Clinical isolate	PR-L10I M46I I54V Q58E L63P I64V V77I V82F I84V L90M I93L	p24	-	<0.031 µM
Cc1cc(C)c(-n2nnnc2SCC(=O)Nc2ccc([N+](=O)[O-])cc2Cl)c(C)c1	-	-	p24	-	<10 µM
O=c1[nH]cnc2c1ncn2[C@H]1CC[C@@H](CO)O1	HXB2-D184+294 (RT M184V P294S)	RT-M184V P294S	RT activity	-	37.5 µM
Cc1cn([C@H]2C[C@H](N=[N+]=[N-])[C@@H](CO)O2)c(=O)[nH]c1=O	IIIB	L100I	MTT	-	0.006 µM
Cc1cc(C)c(-n2nnnc2SCC(=O)Nc2ccc([N+](=O)[O-])cc2C)c(C)c1	-	-	p24	-	<10 µM